pKd: −log10 of the molar value.
Biological target: NCp7 (nucleocapsid protein, Zn2.NCp7(1-55)) (HIV-1) (UniProt P35962)
Details: Trp37 fluorescence quenching, 0.2 M NaCl; average of 11 determinations

Substance SL3 20mer has a pKd of 7.55.
